Reference: patent US20020086278A1, “CHROMOGENIC MEDIA CONTAINING BLOOD OR HEMIN” (priority 1999, published 2002)

Experiment: Color contrast of chromogen on blood plate

**Q.** What does the source list for `Oc1c[nH]c2cc(Cl)ccc12` [6-chloro-3-indoxyl]?
**A.** Contrast on Blood Plate: Poor*; Colony (colony color of chromogen): grey purple
